A mixed list of measured activities; the numbers were collected in NIAID ChemDB.

Shared fields: host cell toxicity; cell line: PBMC; read-out: CC50

An empty or dashed field is not shown. Lines come from different laboratories, so protocols vary. CCn is the concentration with n% toxicity to the cells.

| smiles | read by | result |
|---|---|---|
| CCCCCCCCCCCCCCCCCCOCCOP(=O)(N[C@@H](C)C(=O)OC)OC[C@@H]1OC[C@H](n2cc(C)c(=O)[nH]c2=O)O1 | MTT | 61.4 µM |
| C[C@@H](NC(=O)c1nc(-c2ccc(C(=O)OCc3ccccc3)cn2)[nH]c(=O)c1O)C1CCCCC1 | absorbance | <0.4 µM |
| CCCCCCCCCCCCCCCCCCOCCOP(=O)(CO[C@H](C)Cn1cnc2c(N)ncnc21)OCc1ccccc1C | luminescence | 1.44 µM |
| CC(C)c1ccc(C2(CN)CCC(=O)N2c2ccccc2)cc1 | absorbance | 48.3 µM |
| COC(=O)[C@H](Cc1ccccc1)NP(=O)(OC[C@@H]1OC[C@H](n2cc(C)c(=O)[nH]c2=O)O1)Oc1ccccc1 | MTT | >100 µM |
| Nc1nc2c(ncn2[C@@H]2CC(CO)=C[C@H]2O)c(=O)[nH]1 | trypan blue | >100 µM |
| Cc1cn([C@H]2C[C@H](F)[C@@H](CO)O2)c(=O)[nH]c1=O | XTT | >0.5 µM |
| Cc1ccc(N2C(=O)CCC2(C#N)c2ccc(OCc3c(Cl)cccc3Cl)cc2)cc1 | absorbance | 14.1 µM |
| CCCCCc1ccc(-c2cn(C/C(C)=C/CP(=O)(OCOC(=O)OC(C)C)OCOC(=O)OC(C)C)nn2)cc1 | absorbance | 47.8 µM |
| Nc1ncnc2c1ncn2[C@@H]1CC(CO)=C[C@H]1O | trypan blue | >100 µM |
| COc1ccc2nc(Cl)c(/C=C/C(=O)c3ccc(Cl)s3)cc2c1 | MTS | 20.8 µM |
| Cc1cn([C@H]2C=C[C@@H](COC(=O)NCCc3ccc(Br)cc3)O2)c(=O)[nH]c1=O | tetrazolium | >100 µM |
| C/C(=C\CP(=O)(OCOC(=O)OC(C)C)OCOC(=O)OC(C)C)Cn1cc(C=O)nn1 | absorbance | 75.1 µM |
| Cc1ccc(N2C(=O)CCC2(C#N)c2ccc(OCc3ccccc3)cc2)cc1 | absorbance | >100 µM |
| CC(=Nc1ccc(O)cc1)C1Sc2ncccc2C1=O | MTS | >100 µM |
| CCCCCCCCCCCCCCCCCCOCCOP(=O)(O)CO[C@H](CO)Cn1cnc2c(=O)[nH]c(N)nc21 | flow cytometry | 21.7 µM |
| N#CC1(c2ccccc2)CCCN1C(=O)c1ccccc1Br | absorbance | >100 µM |
| CCCCCCc1ccc(-c2cn(C/C(C)=C/CP(=O)(OCOC(=O)OC(C)C)OCOC(=O)OC(C)C)nn2)cc1 | absorbance | 23.7 µM |
| NC(N)=NC(=O)c1ccc(N2CCCCCC2)nc1 | ATP / luminescence | 96 µM |
| Cc1cn([C@H]2C[C@H](F)[C@@H](COC(=O)CCCCCCCCCCC(=O)O)O2)c(=O)[nH]c1=O | XTT | >0.5 µM |
| CCCCCCCC/C=C\CCCCCCCCOP(=O)(N[C@@H](C)C(=O)OC)OC[C@@H]1OC[C@H](n2cc(C)c(=O)[nH]c2=O)O1 | MTT | 31.3 µM |
| CCCCc1ccc(-c2cn(C/C(C)=C/CP(=O)(OCOC(=O)OC(C)C)OCOC(=O)OC(C)C)nn2)cc1 | absorbance | 19.4 µM |
| Cc1cn([C@H]2C=C[C@@H](COC(=O)CCCCCCCCCCC(=O)O)O2)c(=O)[nH]c1=O | XTT | >0.5 µM |
| Cc1cc(C)cc(Cc2c(I)c(=O)[nH]c(=O)n2COCc2ccccc2)c1 | XTT | 137.8 µM |
| Cc1ccc2nc(Cl)c(/C=C/C(=O)c3cc(C)sc3C)cc2c1 | MTS | 13 µM |
| c1ccc2c(c1)CCN(c1nn3c(C4CC4)nnc3c3ccccc13)C2 | - | 64.7 µM |
| Cc1ccc2nc(Cl)c(/C=C/C(=O)c3ccc(C)s3)cc2c1 | MTS | 55.4 µM |
| Cc1cn([C@H]2CO[C@@H](CO[P@]3(=O)OCC[C@H](c4cccc(Cl)c4)O3)O2)c(=O)[nH]c1=O | MTT | >100 µM |
| Nc1ccn([C@@H]2CC(CO)=C[C@H]2O)c(=O)n1 | trypan blue | >100 µM |
| COc1ccc2nc(Cl)c(/C=C/C(=O)c3sccc3Cl)cc2c1 | MTS | 14.6 µM |
| Cc1cn([C@H]2C=C[C@@H](COC(=O)NCCc3ccccn3)O2)c(=O)[nH]c1=O | tetrazolium | >100 µM |
| Cc1ccc2nc(Cl)c(/C=C/C(=O)c3sccc3C)cc2c1 | MTS | 25.3 µM |
| CCCCCCCc1ccc(-c2cn(C/C(C)=C/CP(=O)(OCOC(=O)OC(C)C)OCOC(=O)OC(C)C)nn2)cc1 | absorbance | 9.2 µM |
| CCCCCCCCCCCCCCCCOCCCOP(=O)(N[C@H](C(=O)OC)C(C)C)OC[C@@H]1OC[C@H](n2cc(C)c(=O)[nH]c2=O)O1 | MTT | 10.7 µM |
| NCC1(c2ccccc2)CCC(=O)N1Cc1ccccc1 | absorbance | >100 µM |
| Nc1nccc2c1ncn2[C@@H]1O[C@H](CO)[C@@H](O)[C@H]1O | - | 9.94 µM |
| COC(=O)[C@H](C)NP(=O)(OC[C@@H]1OC[C@H](n2cc(C)c(=O)[nH]c2=O)O1)Oc1ccc(C#N)cc1 | MTT | >100 µM |
| CC(C)[C@@H]1NC(=O)[C@H](C(C)C)N([C@H]2C[C@H](N=[N+]=[N-])[C@@H](CO)O2)C1=O | XTT | >100 µM |
| CCCc1ccc(-c2cn(C/C(C)=C/CP(=O)(OCOC(=O)OC(C)C)OCOC(=O)OC(C)C)nn2)cc1 | absorbance | 50.2 µM |
| COc1ccc2nc(Cl)c(/C=C/C(=O)c3cc4ccccc4o3)cc2c1 | MTS | 3.4 µM |
| O=S(=O)(NCCc1ccc2c(n1)NCCC2)c1ccc(F)cc1 | - | 50 µM |
| CCCCCCCCCCCCCCCCCCOCCOP(=O)(O)OC[C@@H]1OC[C@H](n2cc(C)c(=O)[nH]c2=O)O1 | MTT | 15.04 µM |
| CCCCCCCCCCCCCCCCS(=S)CCOP(=O)(CO[C@H](C)Cn1cnc2c(N)ncnc21)OCC(C)C | XTT / absorbance | 23.7 µM |
| CCCCCCCCCCCCCCCCCCOCCOP(=O)(O)CO[C@H](CO)Cn1ccc(N)nc1=O | flow cytometry | 7.5 µM |
| Cc1cn([C@H]2C[C@H](N=[N+]=[N-])[C@@H](COC(=O)CCCCCCCCC(=O)O)O2)c(=O)[nH]c1=O | XTT | >0.5 µM |
| CC(C)Oc1ccc(C2(C#N)CCC(=O)N2c2ccccc2)cc1 | absorbance | 95.8 µM |
| N[C@@H](CCCCNC1c2ccc3cc4c5c6c(cc7ccc8cc9cc1c1c9c9c8c7c6c9c6c1c2c3c56)C4)C(=O)O | trypan blue | >700 µM |
| COc1ccc2c(c1)CN(c1nn3c(-c4cccs4)nnc3c3ccccc13)CC2 | - | >100 µM |
| C/C(=C\CP(=O)(OCOC(=O)C(C)(C)C)OCOC(=O)C(C)(C)C)Cn1cnc2c(=O)[nH]c(N)nc21 | absorbance | 90.7 µM |
| Nc1nccc2c1ncn2[C@@H]1C=C(CO)[C@@H](O)[C@H]1O | - | 10 µM |
| Cc1ccc2nc(Cl)c(/C=C/C(=O)c3ccc(C)o3)cc2c1 | MTS | 10.8 µM |
| NC(=O)CCNC(=O)c1ccccc1SCc1ccc(OP2(=O)OCc3ccccc3O2)cc1 | XTT | >50 µM |
| CCNC(=O)c1cn(C/C(C)=C/CP(=O)(OCOC(=O)OC(C)C)OCOC(=O)OC(C)C)nn1 | absorbance | 80.6 µM |
| Cc1cn([C@H]2C[C@H](N=[N+]=[N-])[C@@H](COC(=O)CCCCCCC(=O)O)O2)c(=O)[nH]c1=O | XTT | >0.5 µM |
| CC(C)c1nnc2c3ccccc3c(N3CCc4ccc(N)cc4C3)nn12 | - | 22.4 µM |
| C[C@@H]1NC(=O)[C@H](C)N([C@H]2C[C@H](O)[C@@H](CO)O2)C1=O | XTT | >100 µM |
| C/C(=C\CP(=O)(OCOC(=O)OC(C)C)OCOC(=O)OC(C)C)Cn1cc(-c2ccc([N+](=O)[O-])cc2)nn1 | absorbance | 23.5 µg/mL |
| NC(=NCCC[C@H](N)C(=O)O)NC1c2ccc3cc4c5c6c(cc7ccc8cc9cc1c1c9c9c8c7c6c9c6c1c2c3c56)C4 | trypan blue | >600 µM |
| COC(=O)[C@H](NP(=O)(OC[C@@H]1OC[C@H](n2cc(C)c(=O)[nH]c2=O)O1)Oc1ccccc1)C(C)C | MTT | >100 µM |
| Cc1ccc(C[C@@H](C)[C@@H](C)Cc2ccc(C)c(C)c2)cc1C | MTS | 60 µM |
| COc1ccc(C(=O)N2CCCC2(C#N)c2ccccc2)cc1[N+](=O)[O-] | absorbance | >100 µM |
| CC(C)[C@@H]1NC(=O)[C@H](C(C)C)N([C@H]2C[C@H](O)[C@@H](CO)O2)C1=O | XTT | >100 µM |
| Cc1noc(C)c1-c1ccc2c(c1)N(c1cc(N)c(F)cc1F)CCC2=O | luminescence | >1 µM |
| CCCCCCCC(=O)NCc1cn(C/C(C)=C/CP(=O)(OCOC(=O)OC(C)C)OCOC(=O)OC(C)C)nn1 | absorbance | 51.5 µM |
| Cc1cn([C@H]2C=C[C@@H](COC(=O)NCCC3=CCCCC3)O2)c(=O)[nH]c1=O | tetrazolium | >100 µM |

For reference, 7 entries again:

smiles | read by | result
Cc1ccc(C[C@@H](C)[C@@H](C)Cc2ccc(C)c(C)c2)cc1C | MTS | 60 µM
C/C(=C\CP(=O)(OCOC(=O)OC(C)C)OCOC(=O)OC(C)C)Cn1cc(-c2ccc([N+](=O)[O-])cc2)nn1 | absorbance | 23.5 µg/mL
CCCCCCCCCCCCCCCCCCOCCOP(=O)(N[C@@H](C)C(=O)OC)OC[C@@H]1OC[C@H](n2cc(C)c(=O)[nH]c2=O)O1 | MTT | 61.4 µM
COC(=O)[C@H](C)NP(=O)(OC[C@@H]1OC[C@H](n2cc(C)c(=O)[nH]c2=O)O1)Oc1ccc(C#N)cc1 | MTT | >100 µM
Cc1noc(C)c1-c1ccc2c(c1)N(c1cc(N)c(F)cc1F)CCC2=O | luminescence | >1 µM
CC(C)[C@@H]1NC(=O)[C@H](C(C)C)N([C@H]2C[C@H](N=[N+]=[N-])[C@@H](CO)O2)C1=O | XTT | >100 µM
Cc1cn([C@H]2C[C@H](N=[N+]=[N-])[C@@H](COC(=O)CCCCCCC(=O)O)O2)c(=O)[nH]c1=O | XTT | >0.5 µM